Literature values as cited in patent US20070218486A1, “Immunoassays, Haptens, Immunogens and Antibodies for Anti-HIV Therapeutics” (Ark Diagnostics, Inc., priority 2006, published 2007).
Read-outs that look alike come from different tables or passages of the source.

Legend:
[1] = 2 to 4 hours after the dose, cited from earlier work
[2] = cited from earlier work
[3] = rat; cited from earlier work

## 2′-deoxy-3′-thiacytidine [Lamivudine]
[1]; adults
  concentration in cerebrospinal fluid (CSF), % of serum concentrations: 4 to 8%
[1]; children
  concentration in cerebrospinal fluid (CSF), % of serum concentrations: 9 to 17%

## Maraviroc
[2]; animal species and humans
  major component present in the systemic circulation and excreta: parent compound being the major component
[2]; in vivo
  elimination of radioactive dose: primarily via the feces
[3]
  secretion of parent compound: secreted via bile and directly into the gastrointestinal tract
